Data taken from patent publication US20150284438A1 (BIOVALENCE SDN BHD, published 2015).

Tests used:
[1] = target: T1, DEN2 cNS2B-NS3pro complex (Dengue virus 2 (DEN2 / DENV-2), UniProt P14340 1394-1440; P14340 1476-1660)
T1 sequence 1: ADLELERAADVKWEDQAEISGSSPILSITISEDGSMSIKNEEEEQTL
T1 sequence 2: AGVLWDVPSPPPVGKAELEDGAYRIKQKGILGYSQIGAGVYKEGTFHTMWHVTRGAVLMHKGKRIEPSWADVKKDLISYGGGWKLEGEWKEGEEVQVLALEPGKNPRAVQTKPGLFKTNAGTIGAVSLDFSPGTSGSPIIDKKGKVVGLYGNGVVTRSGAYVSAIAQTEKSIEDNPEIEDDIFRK

[2] = target: T1, DEN2 cNS2B-NS3pro complex; experiment: cell-based or functional assay

B1: Tamapal1 (other)
chain: VPGVGVPGVGKWCFRVCYRGICYRRCRVPGVGVPGVGGATGSDVNFDLSTATAKTYTKFIEDFRATLPFSHKVYDIPLLYSTISDSRRFILLNLTSYAYETISVAIDVTNVYVVAYRTRDVSYFFKESPPEAYNILFKGTRKITLPYTGNYENLQTAAHKIRENIDLGLPALSSAITTLFYYNAQSAPSALLVLIQTTAEAARFKYIERHVAKYVATNFKPNLAIISLENQWSALSKQIFLAQNQGGKFRNPVDLIKPTGERFQVTNVDSDVVKGNIKLLLNSRASTADENFITTMTLLGESVVNVPGVGVPGVGHGVSGHGQHGVHG
[1]
  Ki: 2.37 µM
[2]
  IC50 of NS2B-NS3 protease inhibition: 4.74 µM
